From patent US7772180B2, “Hepatitis C virus inhibitors” (Bristol-Myers Squibb Company, priority 2006, dated 2010)

Sequences of proteins named here, by UniProt entry; tags and fusion partners are left off. A change or cut given only in a name is not applied to a line headed by its entry. Residues count along the entry.
UniProt P27958, 1027-1657 limits assumed, stated change not applied: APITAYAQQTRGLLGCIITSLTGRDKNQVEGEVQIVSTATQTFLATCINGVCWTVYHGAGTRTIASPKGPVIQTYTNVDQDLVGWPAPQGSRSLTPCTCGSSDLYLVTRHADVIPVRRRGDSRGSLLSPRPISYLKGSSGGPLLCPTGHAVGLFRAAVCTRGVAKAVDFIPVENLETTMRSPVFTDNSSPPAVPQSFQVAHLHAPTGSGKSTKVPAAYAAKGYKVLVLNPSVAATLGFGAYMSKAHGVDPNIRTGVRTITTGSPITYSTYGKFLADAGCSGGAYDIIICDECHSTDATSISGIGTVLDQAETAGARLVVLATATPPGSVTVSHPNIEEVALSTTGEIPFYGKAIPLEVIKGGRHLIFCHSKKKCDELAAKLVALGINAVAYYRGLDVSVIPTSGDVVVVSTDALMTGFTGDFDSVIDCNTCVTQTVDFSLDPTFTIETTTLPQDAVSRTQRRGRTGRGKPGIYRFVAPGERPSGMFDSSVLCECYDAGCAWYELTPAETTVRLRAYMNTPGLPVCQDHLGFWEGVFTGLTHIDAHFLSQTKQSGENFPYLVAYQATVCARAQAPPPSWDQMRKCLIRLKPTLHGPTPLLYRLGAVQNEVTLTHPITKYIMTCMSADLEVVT

Experiments:
[1] = target: HCV NS3/4A protease complex, BMS strain (UniProt P27958, species not given/STRAIN_BMS); experiment: FRET peptide assay to monitor HCV NS3/4A proteolytic activity (BMS strain); assay type: biochemical, Hepatitis C virus (genotype 1a); conditions: read-out: HCV Protease (IC50); NS3/4A BMS strain; activity range class
Source text: HCV NS3 protease complexes, derived from the BMS strain, H77 strain or J4L6S strain, were generated, as described below. These purified recombinant proteins were generated for use in a homogeneous assay (see below) to provide an indication of how effective compounds of the present disclosure would be in inhibiting HCV NS3 proteolytic activity.
Serum from an HCV-infected patient was obtained from Dr. T. Wright, San Francisco Hospital. […]
In order to monitor HCV NS3/4A protease activity, an NS3/4A peptide substrate was used. […] The peptide also contains a fluorescence donor, EDANS, near one end of the peptide and an acceptor, DABCYL, near the other end. The fluorescence of the peptide is quenched by […] resonance energy transfer (RET) between the donor and the acceptor, but as the NS3 protease cleaves the peptide the products are released from RET quenching and the fluorescence of the donor becomes apparent.
The peptide substrate was incubated with one of the three recombinant NS3/4A protease complexes, in the absence or presence of a compound of the present disclosure. The inhibitory effects of a compound were determined by monitoring the formation of fluorescent reaction product in real time using a Cytofluor Series 4000. […]

[2] = tested on: HCV replicon (strain 1b) in HUH-7 cells; experiment: HCV replicon FRET assay; assay type: cell-based, Hepatitis C virus; conditions: read-out: HCV Pro Replicon (EC50); HCV replicon cell assay; activity range class
Source text: An HCV replicon whole cell system was established as described by Lohmann V, Korner F, Koch J, Herian U, Theilmann L, Bartenschlager R., Science 285(5424): 110-3 (1999). This system enabled us to evaluate the effects of our HCV Protease compounds on HCV RNA replication. Briefly, using the HCV strain 1b sequence described in the Lohmann paper (Assession number: AJ238799), an HCV cDNA was synthesized by Operon Technologies, Inc. (Alameda, Calif.), and the full-length replicon was then assembled in plasmid pGem9zf(+) (Promega, Madison, Wis.) using standard molecular biology techniques. […]
The HCV replicon FRET assay was developed to monitor the inhibitory effects of compounds described in the disclosure on HCV viral replication. […] After 4 days, cells were first assessed for cytotoxicity using alamar Blue (Trek Diagnotstic Systems) for a CC50 reading. The toxicity of compound (CC50) was determined by adding 1/10th volume of alamarBlue to the media incubating the cells. After 4 hours, the fluorescence signal from each well was read, with an excitation wavelength at 530 nm and an emission wavelength of 580 nm, using the Cytofluor Series 4000 (Perspective Biosystems). […]

Question: With `C=C[C@@H]1C[C@]1(NC(=O)[C@@H]1C[C@@H](Oc2ncc(OC)c3ccc(Cl)cc23)CN1C(=O)C(Nc1cccc(F)c1)C(C)(C)C)C(=O)NS(=O)(=O)C1CC1` (some centres unmarked) as the compound, how does the IC50 [1] read?
Answer: The IC50 was 0.6 to 20 nM.

Question: What about the EC50 [2] of the same compound?
Answer: Its EC50 is 3 to 100 nM.
